Results of unrelated studies side by side (data: NIAID ChemDB).

All rows: growth or infection tests; agent: Herpes simplex virus 2; cell line: PRK; method: cytopathic effect; measure: EC50

Neighbouring rows are from separate reports. ECn is the concentration giving n% inhibition of infection, replication or growth. An empty or dashed field is not shown.

| smiles | strain | result |
|---|---|---|
| CCc1cn([C@H]2C[C@H](O)[C@@H](CO)O2)c(N)nc1=O | LYONS | >400 µg/mL |
| Nc1ncnc2c1ncn2C1CC(CO)[C@@H](O)[C@H]1O | - | 4 µg/mL |
| O=c1[nH]c(=O)n(C2CC(CO)[C@@H](O)C2)cc1/C=C/Br | G | 7 µg/mL |
| CSCc1cn([C@H]2C[C@H](O)[C@@H](CO)O2)c(=O)[nH]c1=O | VCX304 | 4 µg/mL |
| Nc1ncnc2c1ncn2[C@@H]1O[C@H](CO)[C@@H](O)[C@H]1OP(=O)(O)OC[C@H]1O[C@@H](n2cnc3c(N)ncnc32)[C@H](OP(=O)(O)OC[C@H]2O[C@@H](n3cc(F)c(=O)[nH]c3=O)C[C@@H]2O)[C@@H]1O | G | 70 µg/mL |
| CN(C)c1nc2c(=O)[nH]c(N)nc2n1COCCO | - | 250 µg/mL |
| Nc1ncnc2c1ncn2[C@@H]1C[C@H](COP(=O)(O)O)[C@@H](O)[C@H]1O | - | ≥400 µg/mL |
| CSCc1cn([C@H]2C[C@H](O)[C@@H](CO)O2)c(=O)[nH]c1=O | LYONS G 196 | 4 µg/mL |
| CC(=O)OCCOCn1cnc2c(Cl)nc(Cl)nc21 | - | >10 µg/mL |
| O=c1[nH]c(=O)n([C@H]2C[C@H](O)[C@@H](COP(=O)(O)O)O2)cc1CCc1ccccc1 | LYONS | 15 µg/mL |
| O=c1[nH]c(=O)n([C@H]2C[C@@H](CO)[C@H](O)C2)cc1/C=C/Br | G | 20 µg/mL |
| COc1nc(=O)n([C@H]2C[C@H](O)[C@@H](CO)O2)cc1/C=C/Cl | LYONS | 70 µg/mL |
| [N-]=[N+]=NCc1cn([C@H]2C[C@H](O)[C@@H](CO)O2)c(=O)[nH]c1=O | 196 | 10 µg/mL |
| O=c1[nH]c(=O)n([C@@H]2C[C@H](CO)[C@@H](O)C2)cc1/C=C/Br | LYONS | 20 µg/mL |
| O=c1[nH]c(=O)n([C@H]2C[C@H](O)[C@@H](COP(=O)(O)O)O2)cc1I | LYONS | 0.1 µg/mL |
| O=c1[nH]c(=O)n(COCCO)cc1Cl | - | >400 µg/mL |
| Cc1nc(Cc2ccccc2)c2[nH]c(=S)[nH]c(=O)n12 | G | 150 µg/mL |
| O=c1cc(O)ccn1COCCO | - | >400 µg/mL |
| CC(=O)Nc1nc2c(CC(O)CO)nc(C)n2c(=O)[nH]1 | G | >400 µg/mL |
| O=c1[nH]c(=O)n([C@H]2C[C@H](O)[C@@H](COP(=O)(O)O)O2)cc1/C=C/c1ccccc1 | LYONS | 70 µg/mL |
| O=c1[nH]c(=O)n(COCCO)cc1I | - | >400 µg/mL |
| O=c1[nH]c(=O)n([C@H]2CC[C@@H](CO)O2)cc1/C=C/Br | LYONS | 1 µg/mL |
| [N-]=[N+]=N[C@@H]1[C@@H](OP(=O)(O)OC[C@H]2O[C@@H](n3cnc4c(N)ncnc43)[C@H](OP(=O)(O)OCCOCn3cnc4c(=O)[nH]c(N)nc43)[C@H]2N=[N+]=[N-])[C@H](n2cnc3c(N)ncnc32)O[C@@H]1CO | G | 0.7 µg/mL |
| Nc1nc(=O)c(/C=C/Br)cn1[C@H]1C[C@H](O)[C@@H](CO)O1 | LYONS | 300 µg/mL |
| O=c1[nH]c(=O)n([C@H]2C[C@H](O)[C@@H](CO)O2)cc1I | LYONS | 1 µg/mL |
| O=Cc1cn([C@H]2C[C@H](O)[C@@H](CO)O2)c(=O)[nH]c1=O | VCX301 | 1 µg/mL |
| CCc1cn([C@H]2C[C@H](O)[C@@H](COP(=O)(O)O)O2)c(=O)[nH]c1=O | G | 0.4 µg/mL |
| Cc1nc2c(=O)[nH]c(N)nc2n1COCCO | - | 0.5 µg/mL |
| Nc1nc(=O)n([C@H]2C[C@H](O)[C@@H](CO)O2)cc1/C=C\Cl | LYONS | 10 µg/mL |
| CC(=O)OCCOCn1cnc2c(Cl)nc(N)nc21 | - | 20 µg/mL |
| C=CCc1nc(C)n2c(=O)[nH]c(NC(C)=O)nc12 | G | >200 µg/mL |
| O=c1[nH]c(=O)n([C@H]2C[C@H](O)[C@@H](COP(=O)([O-])OP(=O)([O-])OC[C@@H]3OC(O)[C@H](O)[C@H](O)[C@H]3O)O2)cc1I | G | 2 µg/mL |
| CCCc1cn([C@H]2C[C@H](O)[C@@H](COP(=O)(O)O)O2)c(=O)[nH]c1=O | LYONS | 6 µg/mL |
| O=c1ccn(COCCO)c(=O)[nH]1 | - | >400 µg/mL |
| O=c1[nH]c(=O)n([C@H]2C[C@H](O)[C@@H](CO)O2)cc1I | 196 | 0.2 µg/mL |
| O=c1[nH]c(=O)n([C@@H]2OC3COP(=O)(O)OC3[C@H]2O)cc1I | LYONS | >400 µg/mL |
| O=c1[nH]c(=O)n(COCCO)cc1/C=C/Br | - | >400 µg/mL |

For reference, 5 entries again:

smiles	strain	result
O=c1[nH]c(=O)n([C@H]2C[C@H](O)[C@@H](CO)O2)cc1I	LYONS	1 µg/mL
CSCc1cn([C@H]2C[C@H](O)[C@@H](CO)O2)c(=O)[nH]c1=O	VCX304	4 µg/mL
Nc1ncnc2c1ncn2[C@@H]1C[C@H](COP(=O)(O)O)[C@@H](O)[C@H]1O	-	≥400 µg/mL
O=c1[nH]c(=O)n(C2CC(CO)[C@@H](O)C2)cc1/C=C/Br	G	7 µg/mL
[N-]=[N+]=N[C@@H]1[C@@H](OP(=O)(O)OC[C@H]2O[C@@H](n3cnc4c(N)ncnc43)[C@H](OP(=O)(O)OCCOCn3cnc4c(=O)[nH]c(N)nc43)[C@H]2N=[N+]=[N-])[C@H](n2cnc3c(N)ncnc32)O[C@@H]1CO	G	0.7 µg/mL